Measured values from several laboratories, pooled; numbers as filed in NIAID ChemDB.

Shared fields: host cell toxicity; cell line: CEM; read-out: CC50

CCn is the concentration with n% toxicity to the cells.

structure	read by	value
NC/C=C/Cn1cnc2c(N)ncnc21	cell count	3.1 µM
COc1cc(Cc2cnc(/N=C3\C(=O)N(CN4CCN(c5ccccn5)CC4)c4ccc(C)cc43)nc2N)cc(OC)c1OC	-	121 µM
C=CNC(=O)COC(=O)c1c2c(nc3ccccc13)/C(=C\c1cccs1)CCC2	propidium iodide	2 µM
CON(C)C(=O)[C@H](CC(C)C)NC(=O)c1ccccc1SSc1ccccc1C(=O)N[C@@H](CC(C)C)C(=O)N(C)OC	-	20 µM
C/C(=N\NC(=O)CN1c2c(-c3ccccc3)n[nH]c2-c2ccccc2S1(=O)=O)c1cc(C)sc1C	MTS	17.6 µM
O=C1c2ccccc2C(=O)N1C/C=C/Cn1cnc2c(Cl)ncnc21	cell count	>50 µM
C=C(C)[C@@H]1CC[C@]2(C(=O)NCCCCCCCC(=O)NCC(O)CC(=O)O)CC[C@]3(C)[C@H](CC[C@@H]4[C@@]5(C)CC[C@H](O)C(C)(C)[C@@H]5CC[C@]43C)[C@@H]12	-	>3 µM
COc1cc(Cc2cnc(/N=C3\C(=O)N(CN4CCCCC4)c4ccc(C)cc43)nc2N)cc(OC)c1OC	-	105 µM
COc1ccc(/C=N/N=C(\N)NO)c(OC)c1.Cc1ccc(S(=O)(=O)O)cc1	-	78 µg/mL
O=C(O)C[C@H](NC(=O)c1ccccc1SSc1ccccc1C(=O)N[C@@H](CC(=O)O)C(=O)O)C(=O)O	-	>100 µM
N/C(=N\N=C\c1cccc(F)c1)NO	-	23 µg/mL
C/C(=N\NC(=O)CN1c2c(-c3ccccc3)n[nH]c2-c2ccccc2S1(=O)=O)c1ccc(C)s1	MTS	13.8 µM
CC(C)CNC(=O)NC(=O)C(C)OC(=O)c1c2c(nc3ccccc13)/C(=C\c1cccc([N+](=O)[O-])c1)CCC2	-	>300 µM
Cc1ccnc2c1N(C(=O)CNC(=O)c1cnccn1)C(=O)c1cccnc1N2C1CC1	XTT	>200 µM
CCCCCCCCCCC(c1ccc(O)c(C(=O)O)c1)c1ccc(O)c(C(=O)O)c1	-	84.6 µM
Nc1nc2c(ccn2C2CC(CO)(CO)C2)c(=O)[nH]1	-	>30 µg/mL
CCCCCCCCCC=C(c1cc(Br)c(O)c(C(=O)O)c1)c1cc(Br)c(O)c(C(=O)O)c1	-	>191 µM
Nc1ncnc2c1ncn2C/C=C\CN1C(=O)c2ccccc2C1=O	cell count	>50 µM
COc1cc(Cc2cnc(/N=C3\C(=O)N(CN4CCN(c5ccc(Cl)cc5)CC4)c4ccc(C)cc43)nc2N)cc(OC)c1OC	-	36.1 µM
CCn1cc(C(=O)O)c(=O)c2cc(F)c(N3CCN(CC(=O)N4C(=O)c5cccnc5N(C5CC5)c5nccc(C)c54)CC3)cc21	XTT	>200 µM
CCC[C@@H](CCC(=O)O)NC(=O)c1ccccc1SSc1ccccc1C(=O)N[C@@H](CCC)CCC(=O)O	-	50 µM
Nc1ncnc2c1ncn2C1CC(CO)(CO)C1	-	>30 µg/mL
COc1ccc(/C=N/N=C(\N)NO)c(OC)c1C.Cc1ccc(S(=O)(=O)O)cc1	-	40 µg/mL
O=C(O)c1cc(C(=CCCBr)c2cc(Cl)c(O)c(C(=O)O)c2)cc(Cl)c1O	-	181 µM
CCNC(=O)NC(=O)C(C)OC(=O)c1c2c(nc3ccccc13)/C(=C\c1cccc([N+](=O)[O-])c1)CCC2	propidium iodide	16 µM
CC(C)CCC[C@@H](C)[C@H]1CC[C@H]2[C@@H]3CC[C@H]4C[C@@H](CCC=C(c5cc(Cl)c(O)c(C(=O)O)c5)c5cc(Cl)c(O)c(C(=O)O)c5)CC[C@]4(C)[C@H]3CC[C@]12C	-	>310 µM
COC(=O)[C@H](C)NP(=O)(OC[C@H]1C/C1=C/n1cnc2c(OC)nc(N)nc21)Oc1ccccc1	-	4.4 µM
CCCCCC=C(c1cc(Cl)c(OC)c(C(=O)OC)c1)c1cc(Cl)c(OC)c(C(=O)OC)c1	-	>28.2 µM
O=C1c2ccccc2C(=O)N1C/C=C/Cn1ccc(=O)[nH]c1=O	cell count	>50 µM
C/C(=N\NC(=O)CN1c2c(-c3ccccc3)n[nH]c2-c2ccccc2S1(=O)=O)c1sccc1C	MTS	13.1 µM
C=C(C)[C@@H]1CC[C@]2(C(=O)NCC(=O)O)CC[C@]3(C)[C@H](CC[C@@H]4[C@@]5(C)CC[C@H](O)C(C)(C)[C@@H]5CC[C@]43C)[C@@H]12	-	>3 µM
COc1nc(F)nc2c1ncn2[C@H]1C[C@H](N=[N+]=[N-])[C@@H](CO)O1	MTS	>100 µM
COc1ccc(/C=N/N=C(\N)NO)cc1F	-	20 µg/mL
NCCCC[C@H](NC(=O)c1ccccc1SSc1ccccc1C(=O)N[C@@H](CCCCN)C(=O)O)C(=O)O	-	>100 µM
COc1cc(/C=N/N=C(\N)NO)ccc1O.Cc1ccc(S(=O)(=O)O)cc1	-	132 µg/mL
CC(CC(=O)O)NC(=O)c1ccccc1SSc1ccccc1C(=O)NC(C)CC(=O)O	-	59.5 µM
C=C(C)[C@@H]1CC[C@]2(C(=O)NCCCCCCCC(=O)N[C@@H](Cc3ccccc3)[C@@H](O)CC(=O)O)CC[C@]3(C)[C@H](CC[C@@H]4[C@@]5(C)CC[C@H](O)C(C)(C)[C@@H]5CC[C@]43C)[C@@H]12	-	>3 µM
CC(C)CCC[C@@H](C)[C@H]1CC[C@H]2[C@@H]3CC[C@H]4C[C@@H](CC=C(c5cc(Cl)c(O)c(C(=O)O)c5)c5cc(Cl)c(O)c(C(=O)O)c5)CC[C@]4(C)[C@H]3CC[C@]12C	-	>320 µM
COc1cccc(N2CCN(CN3C(=O)/C(=N\c4ncc(Cc5cc(OC)c(OC)c(OC)c5)c(N)n4)c4cc(C)ccc43)CC2)c1	-	11.9 µM
CCNC(=O)NC(=O)C(C)OC(=O)c1c2c(nc3ccccc13)C(Cc1ccc(OC)c(OC)c1)CC2	MTT	100 µM
COc1cc(Cc2cnc(/N=C3\C(=O)N(CN4CCCC4)c4ccc(C)cc43)nc2N)cc(OC)c1OC	-	122 µM
CC(C)[C@@H](/C=C/CO)NC(=O)c1ccccc1SSc1ccccc1C(=O)N[C@H](/C=C/CO)C(C)C	-	9 µM
C=C(C)[C@@H]1CC[C@]2(C(=O)NCCCCCCCC(=O)NCC(C)C(=O)O)CC[C@]3(C)[C@H](CC[C@@H]4[C@@]5(C)CC[C@H](O)C(C)(C)[C@@H]5CC[C@]43C)[C@@H]12	-	>3 µM
CCCCCC=C(c1cc(Cl)c(OC)c(C(=O)O)c1)c1cc(Cl)c(OC)c(C(=O)O)c1	-	13.4 µM
CNc1nc(Cl)nc2c1ncn2[C@H]1C[C@H](N=[N+]=[N-])[C@@H](CO)O1	MTS	>100 µM
COC(=O)[C@H](C)NP(=O)(OCC1C/C1=C/n1cnc2c(=O)[nH]c(N)nc21)Oc1ccccc1	-	>103 µM
C=CNC(=O)COC(=O)c1c2c(nc3ccccc13)/C(=C\c1cccc(OC)c1OC)CCC2	propidium iodide	>25 µM
CCCCCCCCCC=C(c1cc(Cl)c(OC)c(C(=O)O)c1)c1cc(Cl)c(OC)c(C(=O)O)c1	-	149 µM

The last 5 rows once more:

structure | read by | value
CCCCCC=C(c1cc(Cl)c(OC)c(C(=O)O)c1)c1cc(Cl)c(OC)c(C(=O)O)c1 | - | 13.4 µM
CNc1nc(Cl)nc2c1ncn2[C@H]1C[C@H](N=[N+]=[N-])[C@@H](CO)O1 | MTS | >100 µM
COC(=O)[C@H](C)NP(=O)(OCC1C/C1=C/n1cnc2c(=O)[nH]c(N)nc21)Oc1ccccc1 | - | >103 µM
C=CNC(=O)COC(=O)c1c2c(nc3ccccc13)/C(=C\c1cccc(OC)c1OC)CCC2 | propidium iodide | >25 µM
CCCCCCCCCC=C(c1cc(Cl)c(OC)c(C(=O)O)c1)c1cc(Cl)c(OC)c(C(=O)O)c1 | - | 149 µM

Blank or dashed fields: not listed here. Conditions beyond the fields shown may differ between rows.